Anti-infective test results gathered from many reports (values: NIAID ChemDB through PubChem).

Common to all: enzyme or target tests; species: HIV-1; protein: Reverse transcriptase; method: nucleotide incorporation / radiometric; read-out: IC50

Neighbouring rows are from separate reports. Blank or dashed fields: not listed here. ICn is the concentration giving n% inhibition.

{"structure": "CCC1(c2cccc(Cl)c2)Cc2ccccc2-n2cccc2C1=O", "changes": "RT-L100I", "result": "10 µM"}
{"structure": "CCN1c2ncc(COc3ccccc3O)cc2C(=O)N(C)c2ccc(Cl)nc21", "strain": "WT", "result": "<1 µM"}
{"structure": "Cc1cc(C)c(-n2nnnc2SCC(=O)Nc2cccc(F)c2C)c(C)c1", "result": "<2 µM"}
{"structure": "Cc1cn([C@H]2C=C[C@@H](COP(=O)(O)OP(=O)(O)OP(=O)(O)O)O2)c(=O)[nH]c1=O", "changes": "RT-I132A", "result": "0.13 µM"}
{"structure": "CCOc1cccc(C2(CC)Oc3ccccc3-n3cccc3C2=O)c1", "changes": "RT-Y181I", "result": "2.1 µM"}
{"structure": "CCN1c2ncc(COc3cccc(OC)c3)cc2C(=O)N(C)c2ccc(Cl)nc21", "strain": "WT", "result": "<1 µM"}
{"structure": "COc1ccc(CSc2nc(Cc3c(F)cccc3F)c(C)c(=O)[nH]2)cc1", "changes": "RT-181I", "result": ">400 µM"}
{"structure": "Cc1cc(C)c(-n2nnnc2SCC(=O)Nc2cccc3c2C(=O)NC3=O)c(C)c1", "result": "<2 µM"}
{"structure": "CCN1c2ncc(Cc3ccccc3)cc2C(=O)N(C)c2cccnc21", "strain": "WT", "result": "<1 µM"}
{"structure": "O=C(CSc1nnnn1-c1ccccc1Br)Nc1ccccc1Cl", "result": "<2 µM"}
{"structure": "Cc1c(Cc2c(F)cccc2F)nc(SCc2ccc(C(C)C)cc2)[nH]c1=O", "changes": "RT-K103N", "result": ">400 µM"}
{"structure": "CCN1c2ncc(C(C)O)cc2C(=O)N(C)c2ccc(Cl)nc21", "strain": "WT", "result": "<1 µM"}
{"structure": "Cc1cc(C)c(-n2nnnc2SCC(=O)Nc2cc(C)on2)c(C)c1", "result": "<2 µM"}
{"structure": "CCN1c2ncc(CCc3cc[nH]c(=O)c3)cc2C(=O)N(C)c2ccc(Cl)nc21", "changes": "RT-Y181C", "result": "<1 µM"}
{"structure": "CCC1(c2ccc(CNc3cccc(F)c3)cc2)Oc2ccccc2-n2cccc2C1=O", "changes": "RT-Y181I", "result": ">10 µM"}
{"structure": "Cc1c(Cc2c(F)cccc2F)nc(SCc2ccc([N+](=O)[O-])cc2)[nH]c1=O", "changes": "RT-181I", "result": ">400 µM"}
{"structure": "CCN1c2ncc(CNc3cccc(N)c3)cc2C(=O)N(C)c2ccc(Cl)nc21", "strain": "WT", "result": "<1 µM"}
{"structure": "COc1ccc(CSc2nc(Cc3ccc(F)cc3)c(C)c(=O)[nH]2)cc1", "strain": "WT", "result": ">400 µM"}
{"structure": "CCC1(c2cccc(Cl)c2)Oc2ccccc2-n2cccc2C1=O", "changes": "RT-Y181I", "result": "0.8 µM"}
{"structure": "Cc1c(Cc2c(Cl)cccc2Cl)nc(SCc2ccc(O)cc2)[nH]c1=O", "changes": "RT-K103N", "result": ">400 µM"}
{"structure": "CCC1(c2cccc(I)c2)Oc2ccccc2-n2cccc2C1=O", "changes": "RT-Y181I", "result": ">10 µM"}
{"structure": "CCN1c2ncc(COc3ccc(F)cc3)cc2C(=O)N(C)c2ccc(Cl)nc21", "changes": "RT-Y181C", "result": "<1 µM"}
{"structure": "CCC1(c2ccc(COc3ccccc3Cl)cc2)Oc2ccccc2-n2cccc2C1=O", "changes": "RT-Y181I", "result": ">10 µM"}
{"structure": "COC(=O)c1cccc(NC(=O)CSc2nnnn2-c2c(C)cc(C)cc2C)c1C", "result": "<2 µM"}

The first 3 rows once more:

structure,changes,strain,result
CCC1(c2cccc(Cl)c2)Cc2ccccc2-n2cccc2C1=O,RT-L100I,-,10 µM
CCN1c2ncc(COc3ccccc3O)cc2C(=O)N(C)c2ccc(Cl)nc21,-,WT,<1 µM
Cc1cc(C)c(-n2nnnc2SCC(=O)Nc2cccc(F)c2C)c(C)c1,-,-,<2 µM